This is an account of results in publication PMC6394985.

Data set [1] deals with RcsB (His6-RcsB) (Klebsiella pneumoniae CG43S3) (UniProt W1DMM9). Nature of the data set: competition with a labelled probe. The following applies: 20 ul: 0.5 mM MgCl2, 0.1% Nonidet P-40, 0.05 mg/ml BSA, 50 ng/ul sheared salmon sperm DNA, 5% glycerol, 5% native PAGE, salt and temperature not stated, recombinant protein, protein details: His6 (pET30a), probe letters rebuilt from the primers and the genome.

Data set [2] shares this target. Nature of the data set: EMSA. The following applies: no acetyl phosphate, 20 ul: 0.5 mM MgCl2, 0.1% Nonidet P-40, 0.05 mg/ml BSA, 50 ng/ul sheared salmon sperm DNA, 5% glycerol, 5% native PAGE, salt and temperature not stated, recombinant protein, protein details: His6 (pET30a), probe letters rebuilt from the primers and the genome. In general terms: Mobility shift assays separate free from complexed probe on a gel.

The exact form of at least one protein or probe is not confirmed.

On to “AGATCTCAGATGTTTCCAAACCCATTTTCGCCAGAAGGCGCGTTTTTCTTTCGCCATTGTTATTATTTTACCTGCCACTTGTCGCCGGACGATATTCCGAGAACTCACCTTAATAAGAGCAGATTAATCGTTTGCATTTTTTTTAACAGCAGACCGCGCTGAAGCAAGTGAACGCCCGTTCCTACAGCTGTCATCCAGCTATGCAAATATATTCGTCTGGCTCAGCTCCACAATATTTCCCTGGCCCAAAACGATTTGTGTTACAATTACGCCTTATAACGGCATCGATAAAAATAACCCCCGCCGCACCTGCACCAGGCATCGCCCTTCTTTTTTCATATCAGGATTTACGCCCCCATGAATGCGATAATCGGATCCGTC (double strand) [PhdeB1 (unlabeled competitor)]”, for which the binding result in data set [1] (300-fold unlabeled vs PhdeB1*) and in data set [1] (excess unlabeled vs PyfdX*) was “binds” throughout.
Take “AGATCTCAGATGTTTCCAAACCCATTTTCGCCAGAAGGCGCGTTTTTCTTTCGCCATTGTTATTATTTTACCTGCCACTTGTCGCCGGACGATATTCCGAGAACTCACCTTAATAAGAGCAGATTAATCGTTTGCATTTTTTTTAACAGCAGACCGCGCTGAAGCAAGTGAACGCCCGTTCCTACAGCTGTCATCCAGCTATGCAAATATATTCGTCTGGCTCAGCTCCACAATATTTCCCTGGCCCAAAACGATTTGTGTTACAATTACGCCTTATAACGGCATCGATAAAAATAACCCCCGCCGCACCTGCACCAGGCATCGCCCTTCTTTTTTCATATCAGGATTTACGCCCCCATGAATGCGATAATCGGATCCGTC (double strand) [PhdeB1* (kvhAS-hdeB1 intergenic promoter)]”: the binding result in data set [2] (label: 5' biotin on hdeB1(-) strand) was “binds”.
As to “GGATCCGCTATCTGTTGCCCATACCGGAGAGGTACTCATCATGGTTGCCAGCAGGCTCGCCAGAATGACTTTTTTCATCGTTGACTCCTGATTAAAATCGGTAAGCATCACCAAACGCAGCCAGCTTAAAAAATATCGTGGGCATTGAGAATCAGAGCCCGGAAGTAATATTGCGGGCCTGGTCTGACAGCTGTCAGACCAGGCGTATAAAGTGGCCTCGGCGCTCTTATTTACGCCTGCCGATCGCGCGGCCTACTATTTTCCTCAGACCTTTCTTTTGGCCCGCTGAATAAACCCTCACGCTTTTTATTCAGCGTCAGGCCGCCAACCGGGATCTGCGGAGCAATTAGATCT (double strand) [PyfdX (unlabeled competitor)]”, the binding result in data set [1] (300-fold unlabeled vs PyfdX*) is given as “binds”.
With “GGATCCGCTATCTGTTGCCCATACCGGAGAGGTACTCATCATGGTTGCCAGCAGGCTCGCCAGAATGACTTTTTTCATCGTTGACTCCTGATTAAAATCGGTAAGCATCACCAAACGCAGCCAGCTTAAAAAATATCGTGGGCATTGAGAATCAGAGCCCGGAAGTAATATTGCGGGCCTGGTCTGACAGCTGTCAGACCAGGCGTATAAAGTGGCCTCGGCGCTCTTATTTACGCCTGCCGATCGCGCGGCCTACTATTTTCCTCAGACCTTTCTTTTGGCCCGCTGAATAAACCCTCACGCTTTTTATTCAGCGTCAGGCCGCCAACCGGGATCTGCGGAGCAATTAGATCT (double strand) [PyfdX* (yfdX-hdeDB intergenic promoter)]”, the binding result in data set [2] (label: 5' biotin on yfdX(+) strand) was “binds”.
